Measurements reported in PubChem BioAssay AID1259414 (Drosophila RNAi Screening Center, 2018)
In all, the deposit lists about 24,000 reagents; below is a random part of those that have a named target and a result. Of all reagents, about 1,210 (5%) were called active. 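Inactive calls also include excluded dsRNAs with several or no targets, genes unexpressed in JW18, and well A1, regardless of score.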

Screen: 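Fly genes that alter Wolbachia amount inside host cells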 (primary screen)
Cells: Drosophila JW18 cells infected with Wolbachia
Reagents: long dsRNA against Drosophila genes, 0.25 µg dsRNA per well of a 384-well plate
Time to read-out: 5 days
Challenge: cells persistently infected with Wolbachia before knock-down; no added drug
Measured: 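Imaged fluorescence in situ signal for Wolbachia 23S rRNA per DAPI-counted host cell, given as a robust z-score within each plate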
Scale: Wolbachia per cell robust z: higher = more Wolbachia per host cell than the plate typical
Hit rule: 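Hit when robust z is 1.5 or more, or -1.5 or less, in at least two of three replicates; excludes dsRNAs with several or no targets, genes not expressed in JW18 and well A1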

gene,PubChem SID,"Wolbachia per cell robust z, rep 1","Wolbachia per cell robust z, rep 2","Wolbachia per cell robust z, rep 3",outcome
CG2906,SID104186633,-1.09,-1.16,-1.9,inactive
msl-3,SID104191163,0.0627,1.44,0.606,inactive
CG14752,SID104186280,1.21,0.368,-2.18,inactive
CG5421,SID104182650,-0.494,0.713,-1.78,inactive
CG5421,SID104203313,-14.3,-0.53,0.31,inactive
omd,SID104196299,2.33,2.62,-0.413,active
omd,SID104207913,1.11,-4.44,0.636,inactive
link,SID104186160,0.571,-0.681,-0.806,inactive
link,SID104202772,-1.44,-1.7,-1.93,active
link,SID104216601,-3.16,0.501,-0.0474,inactive
CG10912,SID104185801,-0.533,-0.816,-0.224,inactive
CG10912,SID104203966,-0.22,-1.07,-0.813,inactive
CG12147,SID104191984,-4.74,-0.971,2.67,inactive
CG12147,SID104208573,-5.75,-1.2,0.456,inactive
CG7432,SID104196035,-5.48,-5.19,0.0751,inactive
CG5776,SID104182683,-0.423,-0.736,-1.16,inactive
CG5776,SID104219043,-0.919,0.473,1.01,inactive
FucT6,SID104199640,-3.5,0.653,-0.617,inactive
FucT6,SID104204601,1.42,0.305,0.56,inactive
lawc,SID104202565,1.33,1.84,0.669,inactive
nom,SID104196181,-0.521,-0.438,0.338,inactive
nom,SID104204570,-0.754,-0.0963,0.238,inactive
Nepl18,SID104194671,0.35,-0.266,-0.816,inactive
phyl,SID104187455,1.17,0.444,-2.36,inactive
phyl,SID104203423,-0.103,-2.37,-1.37,inactive
CG18266,SID104182451,-0.766,1.16,0.953,inactive

Continued, starting with the last 3 of the part before.
gene,PubChem SID,"Wolbachia per cell robust z, rep 1","Wolbachia per cell robust z, rep 2","Wolbachia per cell robust z, rep 3",outcome
phyl,SID104187455,1.17,0.444,-2.36,inactive
phyl,SID104203423,-0.103,-2.37,-1.37,inactive
CG18266,SID104182451,-0.766,1.16,0.953,inactive
CG1143,SID104187980,1.05,0.243,0.0175,inactive
PRY,SID104216185,-4.54,-0.748,1.28,inactive
PRY,SID104216228,-0.183,-0.329,-0.202,inactive
PRY,SID104218937,-0.0217,-0.561,-1.99,inactive
CG11113,SID104185831,1.05,-5.15,1.4,inactive
Pka-R1,SID104191466,1.09,2.63,0.406,inactive
Pka-R1,SID104191667,-2.02,0.0953,-1.43,inactive
Pka-R1,SID104203751,-0.0604,-1.31,0.128,inactive
Pka-R1,SID104218401,0.607,-0.902,1.37,inactive
Ppox,SID104196825,-2.63,-2.34,0.769,active
InR,SID104196509,0.658,-1.75,-0.268,inactive
InR,SID104214261,-2.28,-4.92,-2.08,inactive
CG8773,SID104196236,0.469,0.0937,0.443,inactive
CG8773,SID104202934,-0.313,-0.228,-0.0155,inactive
Cirl,SID104202592,0.955,-0.523,0.462,inactive
Cirl,SID104206824,1.34,0.677,0.647,inactive
cact,SID104183293,-0.139,1.02,-0.827,inactive
cact,SID104206966,-0.564,-0.457,0.14,inactive
CG9733,SID104196341,-0.0776,0.655,-0.223,inactive
Cht8,SID104184338,0.481,0.512,-4.06,inactive
